Laboratory results published in PMC9426499.

Tests used:
[1] = test system: ParRC(pCW3) (Clostridium perfringens plasmid pCW3); assay: EMSA; details: 1:1 and 1:4 DNA:protein, poly[d(I-C)]; recombinant protein; protein details: C-terminal His6
[2] = test system: ParRC(pCW3) (Clostridium perfringens plasmid pCW3); assay: AUC sedimentation velocity; details: recombinant protein, protein details: C-terminal His6
[3] = test system: ParRC(pCW3) (Clostridium perfringens plasmid pCW3); assay: competition with a labelled probe; details: EMSA, 200x unlabeled C5 vs DIG-C5; recombinant protein; protein details: C-terminal His6

AAAATGAAAAAAACATCACAATTTTACGGA (double strand) [parCC C5 30 bp]
binding result [1]: binds
binding result ([2]; shift 2.7 S to 4.2 S, >25 uM ParR): binds
binding result [3]: binds

TTTAGATTGAAAAAAATGATAATATAAAAA (double strand) [parCC C9 30 bp]
binding result ([2]; nonspecific at >25 uM ParR): binds

Construct, isoform or probe ends are uncertain for at least one entry.
